This passage reports LD50 results from patent US20050239873A1, “2 Methoxy antimycin a derivatives and methods of use” (priority 1999, published 2005).

For the assay, the system named is TABX2S cells (over-expressing Bcl-xL). To be noted: estimated from the dose-response curve. An excerpt: Briefly, a DNA fragment encoding the full-length mouse BCl-xL cDNA was isolated from the plasmid PBS.BCL-xL (Tzung et al., Am. J. Path. 150:1985-1995, 1997, incorporated herein by reference in its entirety) by digestion with the restriction endonuclease EcoRI. This EcoRI fragment was cloned into the EcoRI site of the mammalian expression vector pSFFV (Fuhlbrigge et al., Proc. Nat. Acad. Sci. USA 85:5649-5653, 1988) in both sense and antisense orientations, to form expression plasmids pSFFV.Bcl-xL(sense) or pSFFV.Bcl-xL(antisense), respectively. […]
Selected transfectants were then tested for whole cell sensitivity to several apoptotic agents. […] Cell viability was determined by trypan blue dye exclusion. The percentage of viable cells was calculated by the number of viable cells (treated with a particular apoptogenic agent) divided by the number in the control group (untreated).
TABX2S cells and TABX1A cells were also examined for the effects of various mitochondrial inhibitors. […] At various time points after drug treatment, cells were trypsinized, and cell viability was determined by trypan blue dye exclusion. The number of viable cells were counted and normalized to control group (i.e., % control=number of viable cells (treated group)/number of viable cells (control group)×100).

In the case of antimycin A, the LD50 was 1.2 µM.
